According to paper PMC4186475 (Influenza and Other Respiratory Viruses, 2013):

Experiments:
[1] = system: neuraminidase (NA) of influenza B viruses; experiment: NA-Fluor fluorescent NA inhibition (NI) assay, influenza B viruses; type: biochemical, influenza B virus; conditions: Influenza B viruses with Normal NA inhibition
[2] = system: neuraminidase (NA) of influenza A (H1N1)pdm09 viruses; experiment: NA-Fluor fluorescent NA inhibition (NI) assay, A (H1N1)pdm09 viruses; type: biochemical, influenza A (H1N1)pdm09 virus; conditions: H1N1pdm09 viruses with Normal NA inhibition
[3] = system: neuraminidase (NA) of influenza A (H3N2) viruses; experiment: NA-Fluor fluorescent NA inhibition (NI) assay, A (H3N2) viruses; type: biochemical, influenza A (H3N2) virus; conditions: H3N2 viruses with Normal NA inhibition
[4] = system: neuraminidase (NA) of variant influenza A (H3N2)v viruses; experiment: NA-Fluor fluorescent NA inhibition (NI) assay, variant A (H3N2)v viruses; type: biochemical, influenza A (H3N2)v virus; conditions: for Fold change in IC50 of test viruses, Approach #1: vs IC50 of A/California/07/2009 tested in same assay; for Fold change in IC50 of test viruses, Approach #2: vs median IC50 of A/California/07/2009 from 70 assays
[5] = vs median IC50 for virus type/subtype
[6] = vs median IC50 of A/California/07/2009 from 70 assays
[7] = H3N2v virus with Highly reduced NA inhibition (1 virus)
[8] = H3N2v viruses with Normal NA inhibition

Structure (SMILES): CC(=O)N[C@H]1[C@H]([C@H](O)[C@H](O)CO)OC(C(=O)O)=C[C@@H]1N=C(N)N [Zanamivir, zanamivir]
- Fold change in IC50 of test viruses, Approach #3 [1, 5]: 0–2 (342) fold
- Fold change in IC50 of test viruses, Approach #2 ([1]; vs median IC50 of B/Rochester/02/2001 from 11 assays): 1–3 (342) fold
- Fold change in IC50 of test viruses, Approach #1 ([2]; vs IC50 of reference virus A/California/07/2009 tested in same assay): 0–6 (449) fold
- Fold change in IC50 of test viruses, Approach #3 [2, 5]: 1–6 (449) fold
- Fold change in IC50 of test viruses, Approach #2 [2, 6]: 1–6 (449) fold
- Fold change in IC50 of test viruses, Approach #1 ([3]; vs IC50 of A/California/07/2009 tested in same assay): 1–6 (977) fold
- Fold change in IC50 of test viruses, Approach #3 [3, 5]: 0–5 (977) fold
- Fold change in IC50 of test viruses, Approach #2 [3, 6]: 1–6 (977) fold
- Fold change in IC50 of test viruses, Approach #1 [4, 7]: 223 (1) fold
- Fold change in IC50 of test viruses, Approach #2 [4, 7]: 199 (1) fold
- Fold change in IC50 of test viruses, Approach #3 ([4]; H3N2v virus with Reduced NA inhibition (1 virus, S245N + S247P), vs median IC50 for virus type/subtype): 70 (1) fold
- Fold change in IC50 of test viruses, Approach #1 [4, 8]: 2–5 (155) fold
- Fold change in IC50 of test viruses, Approach #2 [4, 8]: 2–4 (155) fold
